Measured values from several laboratories, pooled; numbers as filed in NIAID ChemDB.

Shared fields: host cell toxicity; cell line: MT-4; endpoint: CC50

Blank or dashed fields: not listed here. Neighbouring rows are from separate reports. CCn: concentration that lowers growth or viability of the cells by n%.

compound | read by | value
CC1(C)S[C@H]([C@H](NC(=O)Cc2ccccc2)C(=O)NCc2ccccc2)N[C@H]1C(=O)N[C@H](Cc1ccccc1)C(O)CNC(=O)Cc1ccccc1 |  | >100 µM
NC(=O)c1ncn([C@@H]2O[C@H](CO)[C@@H](O)[C@H]2O)n1 |  | 3.3 µM
CC(=O)OC[C@@]12C[C@@]3(O)C(=O)[C@]1(C)C1C2[C@H]2C4C(C)(C)[C@]4(OC(C)=O)[C@H](OC(C)=O)[C@@H](C)[C@]2(O)[C@H]13 |  | >500 µg/mL
CC(C)Nc1cccnc1N1CCN(C(=O)c2cc3cc(NS(C)(=O)=O)ccc3[nH]2)CC1 | MTT | 127 µM
C=C(C)[C@@H]1CC[C@]2(C(=O)O)CC[C@]3(C)[C@H](CC[C@@H]4[C@@]5(C)CC[C@H](OC(=O)CC(C)(C)C(=O)O)C(C)(C)[C@@H]5CC[C@]43C)[C@@H]12 |  | 14.03 µg/mL
Cc1ccc2c(c1)c1ccc(C)cc1c1ccc(CCCCCN3C(=O)CCC3=O)cc21 |  | 100 µM
CC1(C)S[C@H]([C@H](NC(=O)Cc2ccccc2)C(=O)NCc2ccccc2)N[C@H]1C(=O)N[C@H](Cc1ccccc1)[C@H](O)CC(=O)N[C@H](CO)Cc1ccccc1 |  | >100 µM
CCCCSc1nc(Sc2ccc3ccccc3c2)cc(=O)[nH]1 |  | >200 µM
NNC(=O)CNC(=O)COc1ccc2ccccc2c1 | MTT | >100 µg/mL
Cc1cn([C@@H]2O[C@H](CO[Si](C)(C)C(C)(C)C)C3(OS(=O)(=O)C=C3N)[C@H]2O[Si](C)(C)C(C)(C)C)c(=O)n(CC(=O)N[C@@H](CC(=O)O)C(=O)O)c1=O |  | >250 µM
c1cc(CN2CCCNCCNCCCNCC2)ccc1CN1CCCNCCNCCCNCC1 | MTT | >50 µM
CCCCCCCCCCCCCC(=O)O[C@@H]1[C@@H](C)[C@@]2(O)[C@@H](C=C(COC(C)=O)C[C@@]3(O)C(=O)C(C)=C[C@@H]23)[C@@H]2C(C)(C)[C@]12OC(C)=O |  | >1000 µg/mL
Nc1cc(Cl)nc(S(=O)(=O)c2ccccc2)n1 |  | 6 µM
Cc1cn([C@@H]2O[C@H](CO[Si](C)(C)C(C)(C)C)C3(OS(=O)(=O)C=C3N)[C@H]2O[Si](C)(C)C(C)(C)C)c(=O)n(CC(=O)N[C@@H](C)C(=O)OCc2ccccc2)c1=O |  | ≥250 µM
Cc1cn([C@H]2C[C@H](N=[N+]=[N-])[C@@H](CO)O2)c(=O)[nH]c1=O |  | 10.7 µM
CCCCCCCCC(=O)/C=C/C=C/C=C/C(=O)O[C@@]12C[C@@H](C)[C@@]3(O)[C@@H](C=C(CO)C[C@]4(O)C(=O)C(C)=C[C@@H]34)[C@@H]1C2(C)C | MTT | 25 µM
Cc1cn([C@H]2C[C@H](N=[N+]=[N-])[C@@H](CO)O2)c(=O)[nH]c1=O |  | 10 µM
CCCCCCCC(=O)O[C@@H]1[C@@H](C)[C@@]2(O)[C@@H](C=C(COC(C)=O)C[C@@]3(O)C(=O)C(C)=C[C@@H]23)[C@@H]2C(C)(C)[C@]12OC(C)=O |  | >500 µg/mL
CC1(C)S[C@H]([C@H](NC(=O)Cc2ccccc2)C(=O)NCc2ccccc2)N[C@H]1C(=O)NCCNC(=O)[C@@H]1N[C@@H]([C@H](NC(=O)Cc2ccccc2)C(=O)NCc2ccccc2)SC1(C)C |  | >100 µM
C/C=C(/C)C(=O)O[C@@H]1[C@@H](C)[C@@]2(O)C(C=C(CO)C[C@]3(O)C(=O)C(C)=CC23)C2C(C)(C)[C@@]21OC(=O)C(C)CC |  | >62.5 µg/mL
CC1=NO[C@@]2(CC[C@H](C)N3C[C@H]2n2cc(C(=O)NCc4ccc(F)cc4F)c(=O)c(OCOC(=O)N4CCOC[C@H]4COP(=O)(O)O)c2C3=O)C1 | luminescence | 50 µM
CCOC(=O)C1c2cccn2S(=O)(=O)c2ccccc2N1c1ccc(C)cc1 |  | >300 µM
O=c1[nH]cnc2c1ncn2[C@H]1CC[C@@H](CO)O1 | MTT | 1060 µM
CC1=NO[C@@]2(CC[C@H](C)N3C[C@H]2n2cc(C(=O)NCc4ccc(F)cc4F)c(=O)c(OCOC(=O)OCCC(C)(C)c4c(CC(=O)O)cc(C)cc4OP(=O)(O)O)c2C3=O)C1 | luminescence | 11.6 µM
CCC(C)Oc1cc(N)nc(S(=O)(=O)c2ccccc2)n1 |  | 90 µM
CC(C)Nc1cccnc1N1CCN(C(=O)c2cc3cc(NS(C)(=O)=O)ccc3[nH]2)CC1 | MTT | >43.86 µM
CCc1c(Sc2cc(C)cc(C)c2)n(COCCO)c(=O)[nH]c1=O |  | 155 µM
COC(=O)[C@H](CO)NC(=O)COc1ccc2ccccc2c1 | MTT | >100 µg/mL
O=C1C=C2C[C@H](C3=C4C=C[C@@H]5C[C@@]4(OC3=O)[C@H]3CCCN53)[C@@H]3C[C@@]2(O1)[C@H]1CCCN31 | MTT / absorbance | 97.9 µM
C#CC1(CO)O[C@@H](n2cc(/C=C/Br)c(=O)[nH]c2=O)C[C@@H]1O |  | 1.5 µM
COC(=O)[C@H](CCSC)NC(=O)COc1ccc2ccccc2c1 | MTT | >100 µg/mL
Cc1cn([C@H]2C[C@H](F)[C@@H](CO)O2)c(=O)[nH]c1=O |  | 89 µM
CO[C@@H]1[C@@H](OC(N)=O)[C@@H](O)[C@H](Oc2ccc3c(O)c(NC(=O)c4ccc(O)c(CC=C(C)C)c4)c(=O)oc3c2C)OC1(C)C |  | 109 µg/mL
CCC(C)Oc1nc(Sc2cc(C)cc(C)c2)cc(=O)[nH]1 |  | 115 µM
N=C(CNC(=O)NCCCNc1ccc2[nH]ccc2c1)N[N+](=O)[O-] | MTT | >375 µM
NNC(=O)[C@H](CO)NC(=O)COc1ccc2ccccc2c1 | MTT | >100 µg/mL
C#C[C@]1(CO)O[C@@H](n2cc(CC)c(=O)[nH]c2=O)C[C@@H]1O |  | >400 µM
Nc1ncnc2c1ncn2[C@@H]1C[C@H](CO)[C@@H](O)C1 | MTT | 50 µg/mL
C#CC1(CO)O[C@@H](n2c(Cl)nc3c(=O)[nH]c(N)nc32)[C@H](O)[C@@H]1O |  | >400 µM
N#Cc1cc(Cl)cc(Oc2cc(OCc3[nH]nc4cnccc34)ccc2Cl)c1 |  | >8.3 µM
CCOCn1c(Cc2ccccc2)c(C(C)C)c(=O)[nH]c1=O |  | 102 µM
Cc1c(C)c2c(c3c1CC[n+]1ccc(/C=C4\Sc5ccccc5N4C)cc1-3)-c1cccc(/C=C3\Sc4ccccc4N3C)[n+]1CC2.O=S(=O)([O-])C(F)(F)F.O=S(=O)([O-])C(F)(F)F | absorbance | 1.3 µM
NOCc1ccccc1F |  | 74.7 µg/mL
CCC(C)Oc1cc(N)nc(S(=O)(=O)c2cccc(C)c2)n1 |  | 97 µM
C#CC1(CO)O[C@@H](n2c(C)nc3c(N)ncnc32)[C@H](O)[C@@H]1O |  | >400 µM
Cc1c([C@H](C)c2c(F)cccc2F)nc(SC2CCCC2)[nH]c1=O |  | >200 µM
CS(=O)(=O)OCC1Nc2ccccc2S(=O)(=O)n2cccc21 |  | 130 µM
COC(=O)c1ccc(NC(=O)CSc2nncnc2-c2cccc3ccccc23)c(Br)c1 | MTT | 173 µM
NCCNc1ccc2[nH]ccc2c1 | MTT | 252 µM
Cc1cn([C@@H]2O[C@H](CO[Si](C)(C)C(C)(C)C)C3(OS(=O)(=O)C=C3N)[C@H]2O[Si](C)(C)C(C)(C)C)c(=O)n(CC(=O)N[C@@H](C)C(=O)O)c1=O |  | >250 µM
CC(C)Nc1cccnc1N1CCN(C(=O)c2cc3cc(NS(C)(=O)=O)ccc3[nH]2)CC1 | MTT | >4.38 µM
C#C[C@]1(CO)O[C@@H](n2cc(I)c(=O)[nH]c2=O)C[C@@H]1O |  | >400 µM
NOCc1cc(Cl)ccc1Cl |  | 47 µg/mL
CCCCCCCCCCCCCC(=O)Oc1ccc(C(=O)Oc2c3n(cc(C(=O)NCc4ccc(F)cc4F)c2=O)[C@@H]2CN(C3=O)[C@@H](C)CC[C@]23CC(OC)=NO3)cc1 | luminescence | 50 µM
[N-]=[N+]=N[C@@H]1C[C@@H](n2cnc3c(N)nc(Cl)nc32)O[C@H]1CO |  | >10 µM
Nc1ncnc2c1ncn2CCOCP(=O)(O)O | MTT | 67 µg/mL
O=C1Nc2ccccc2Cn2ccnc21 |  | >300 µM
C[C@H](Cn1cnc2c(N)nc(N)nc21)OCP(=O)(O)O |  | >300 µM
CCn1cc(C(=O)O)c(=O)c2ccc(C)nc21 |  | >250 µg/mL
CN(CCc1c[nH]c2ccccc12)[C@@H]1CC2=CC(=O)O[C@@]23C[C@@H]1N1CCC[C@@H]13 | MTT / absorbance | >100 µM
CCOC(=O)c1ccc(NC(=O)CSc2nncnc2-c2ccccc2Cl)c(Br)c1 | MTT | 69 µM
CC(=O)c1ccc(C)cc1NC(C(N)=O)c1c(Cl)cccc1Cl | MTT | 712 µM
CN=C(N)NCCNc1ccc2[nH]ccc2c1 | MTT | ≥277 µM
CC1=NO[C@@]2(CC[C@H](C)N3C[C@H]2n2cc(C(=O)NCc4ccc(F)cc4F)c(=O)c(OCOC(=O)N4CC[C@H]4COP(=O)(O)O)c2C3=O)C1 | luminescence | 39 µM
Nc1ncnc2c1ncn2[C@@H]1C=C[C@@H](O)[C@H]1O | trypan blue | 0.9 µg/mL
Nc1nc(Cl)nc2c1ncn2[C@H]1O[C@@H](CO)[C@@H](O)[C@@H]1O |  | >10 µM
Cc1cn([C@H]2C[C@H](O)[C@@H](CO)[C@@H]2C)c(=O)[nH]c1=O | MTT | >400 µg/mL
CC1(C)S[C@H]([C@H](NC(=O)Cc2ccccc2)C(=O)NCc2ccccc2)N[C@H]1C(=O)N[C@H](Cc1ccccc1)[C@H](O)CC(=O)N[C@H](CO)c1ccccc1 |  | >100 µM
c1cc2cc(NCCNC3=NCCN3)ccc2[nH]1 | MTT | 88.57 µM
Cc1cn([C@H]2C[C@H](N=[N+]=[N-])[C@@H](CO)O2)c(=O)[nH]c1=O | MTT | 63 µg/mL
O=C(Cc1ccc(Cl)cc1)OCC1Nc2ccccc2S(=O)(=O)n2cccc21 |  | 240 µM
COc1ccc2c(c1)N(C(=O)OC(C)C)[C@@H](CSC)C(=S)N2 | MTT | >29.4 µM
NOCc1ccccc1Cl |  | 73.3 µg/mL
C[C@H](Cn1cnc2c(N)ncnc21)OCP(=O)(O)O |  | >300 µM
Nc1nccc2c1ncn2[C@@H]1C=C(CO)[C@@H](O)[C@H]1O | trypan blue | 0.025 µg/mL
COC(=O)[C@H](C)NC(=O)COc1ccc2ccccc2c1 | MTT | 59 µg/mL
Nc1cc(Nc2cccc3ccccc23)nc(Cl)n1 |  | 7.6 µM
CCn1c(=O)c(C)cn([C@@H]2O[C@H](CO[Si](C)(C)C(C)(C)C)C3(OS(=O)(=O)C=C3N)[C@H]2O[Si](C)(C)C(C)(C)C)c1=O | MTT | >64.7 µM

For reference, 12 entries again:

compound | read by | value
Nc1ncnc2c1ncn2[C@@H]1C[C@H](CO)[C@@H](O)C1 | MTT | 50 µg/mL
CCCCCCCCCCCCCC(=O)Oc1ccc(C(=O)Oc2c3n(cc(C(=O)NCc4ccc(F)cc4F)c2=O)[C@@H]2CN(C3=O)[C@@H](C)CC[C@]23CC(OC)=NO3)cc1 | luminescence | 50 µM
CCCCCCCCC(=O)/C=C/C=C/C=C/C(=O)O[C@@]12C[C@@H](C)[C@@]3(O)[C@@H](C=C(CO)C[C@]4(O)C(=O)C(C)=C[C@@H]34)[C@@H]1C2(C)C | MTT | 25 µM
CC1(C)S[C@H]([C@H](NC(=O)Cc2ccccc2)C(=O)NCc2ccccc2)N[C@H]1C(=O)N[C@H](Cc1ccccc1)C(O)CNC(=O)Cc1ccccc1 |  | >100 µM
C[C@H](Cn1cnc2c(N)ncnc21)OCP(=O)(O)O |  | >300 µM
c1cc2cc(NCCNC3=NCCN3)ccc2[nH]1 | MTT | 88.57 µM
COc1ccc2c(c1)N(C(=O)OC(C)C)[C@@H](CSC)C(=S)N2 | MTT | >29.4 µM
Cc1ccc2c(c1)c1ccc(C)cc1c1ccc(CCCCCN3C(=O)CCC3=O)cc21 |  | 100 µM
CC1(C)S[C@H]([C@H](NC(=O)Cc2ccccc2)C(=O)NCc2ccccc2)N[C@H]1C(=O)N[C@H](Cc1ccccc1)[C@H](O)CC(=O)N[C@H](CO)Cc1ccccc1 |  | >100 µM
C=C(C)[C@@H]1CC[C@]2(C(=O)O)CC[C@]3(C)[C@H](CC[C@@H]4[C@@]5(C)CC[C@H](OC(=O)CC(C)(C)C(=O)O)C(C)(C)[C@@H]5CC[C@]43C)[C@@H]12 |  | 14.03 µg/mL
[N-]=[N+]=N[C@@H]1C[C@@H](n2cnc3c(N)nc(Cl)nc32)O[C@H]1CO |  | >10 µM
CCn1cc(C(=O)O)c(=O)c2ccc(C)nc21 |  | >250 µg/mL